Compound potency records, mixed from different reports. Data source: NIAID ChemDB in PubChem.

All rows: whole-cell or culture tests; species: HIV-1; endpoint: EC50

Blank or dashed fields: not listed here. Rows are shuffled and stem from different studies. ECn: concentration that inhibits the pathogen or its effect by n%. a–b is a range or a potency band.

structure | strain | mutations | cell line | method | result
COCc1nc(Nc2ccc(C#N)cc2)nc(Nc2c(C)cc(/C=C/C#N)cc2C)c1C(=O)N1CCCC(C(N)=O)C1 | MDR | - | MT4 CMV-EGFP | - | 2.29 µM
O=C1Nc2ccc(F)cc2C(C#Cc2cccs2)(C(F)(F)F)O1 | - | RT-K103N | - | - | <0.369 µM
Cc1cc(S(N)(=O)=O)ccc1NC(=O)COc1ccc(Cl)cc1C(=O)c1cc(F)cc(C#N)c1 | HXB2 | RT-V108I | HeLa + HELA CD4+ | β-galactosidase | <0.01 µM
C/C=C/CSc1cc(NC(=S)c2ccsc2C)ccc1Cl | NL4-3 | RT-V106I | CEM + CEM-SS | p24 | 2.7 µM
O=C(O)c1cc(-n2cccc2)ccc1Cl | 93UG065 X4 CLADE D | - | PBMC/5.25M7 | luciferase / cell fusion | 93.56 µM
COc1ccc(CNC(=O)C[C@@]23CC[C@]4(C)[C@H](CC[C@@H]5[C@@]6(C)CC[C@H](OC(=O)[C@H]7C[C@@H](C(=O)O)C7(C)C)C(C)(C)[C@@H]6CC[C@]54C)C2=C(C(C)C)C(=O)C3)cc1 | 92HT599 | - | MT-2 | p24 / ELISA | <1 µM
Cc1ncc(-c2ccc(OCC3CC3C)nc2)c(N2CCC(C)(C)CC2)c1[C@H](OC(C)(C)C)C(=O)O | NL4-3 | - | MT-2 | luminescence | 0.0042 µM
Cc1cc(S(N)(=O)=O)ccc1NC(=O)COc1ccc(Cl)cc1C(=O)c1cc(F)cc(C(F)(F)F)c1 | IIIB | RT-V106A | HELA MAGI | luciferase | 0.01 µM
CCCOC1(C(F)(F)F)OC(=O)Nc2ccc(Cl)cc21 | - | RT-K103N | - | - | <0.064 µM
Cc1cc2[nH]cnc2cc1NC(=O)COc1ccc(Cl)cc1C(=O)c1cc(F)cc(C(F)(F)F)c1 | HXB2 | RT-V106I | HeLa + HELA CD4+ | β-galactosidase | <0.01 µM
CC(C)C1=C2[C@H]3CC[C@@H]4[C@@]5(C)CC[C@H](OC(=O)[C@H]6C[C@@H](C(=O)O)C6(C)C)C(C)(C)[C@@H]5CC[C@@]4(C)[C@]3(C)CC[C@@]2(CC(=O)NCC(C)(C)NC(=O)CN2CCS(=O)(=O)CC2)CC1=O | 92HT599 | - | MT-2 | p24 / ELISA | <1 µM
CCC(=O)c1ccc(F)c([C@@H]2C[C@@H]2NC(=O)Nc2ccc(C#N)cn2)c1O | LAI | NNRTI-resistant (RT N348I) | TZM-bl | β-galactosidase / luminescence | 0.00099 µM
COc1cccc2[nH]cc(C(=O)C(=O)N3CCN(C(=O)c4ccccc4)C[C@@H]3C)c12 | - | - | HeLa + HELA CD4+/CCR5 | luciferase | <10 µM
CCCc1cc(=O)oc2c3c(c4c(c12)OC(C)(C)CC4)O[C@@H](C)[C@H](C)[C@@H]3O | NL4-3(RT-4XAZT+L100I) | RT-D67N K70R L100I T215Y K219Q | CEM + CEM-SS | XTT | >20 µM
C[C@H]1CO[C@@H]2Cn3cc(C(=O)NCc4ccc(F)cc4F)c(=O)c(O)c3C(=O)N12 | NL4-3 | G140S/Q148H | CBMC | RT activity | 0.0094 µM
CC(C)C1=C2[C@H]3CC[C@@H]4[C@@]5(C)CC[C@H](OC(=O)[C@H]6C[C@@H](C(=O)O)C6(C)C)C(C)(C)[C@@H]5CC[C@@]4(C)[C@]3(C)CC[C@@]2(CCNC[C@H](C)NC(=O)c2ccc(Cl)cc2)CC1=O | 92HT599 | - | MT-2 | p24 / ELISA | <1 µM
Cc1cc(S(N)(=O)=O)ccc1NC(=O)COc1ccc(Cl)cc1C(=O)c1cc(F)cc(C(F)(F)F)c1 | HXB2 | RT-G190E | HeLa + HELA CD4+ | β-galactosidase | <0.01 µM
CC(C)C1=C2[C@H]3CC[C@@H]4[C@@]5(C)CC[C@H](OC(=O)[C@H]6C[C@@H](C(=O)O)C6(C)C)C(C)(C)[C@@H]5CC[C@@]4(C)[C@]3(C)CC[C@@]2([C@@H](O)CNC(=O)C2(NC(=O)c3ccc(Cl)cc3)CNC2)CC1=O | 92HT599 | - | MT-2 | p24 / ELISA | <1 µM
C#CCN1CCNC(=O)c2sc3ccc([N+](=O)[O-])cc3c21 | - | - | OM-10.1 | p24 | 0.2 µM
CCC1CN(C(=O)c2ccccc2)CCN1C(=O)C(=O)c1c[nH]c2c(C(=O)OC)cccc12 | - | - | HeLa + HELA CD4+/CCR5 | luciferase | <10 µM
CC#CCOC1(C(F)(F)F)OC(=O)Nc2ccc(Cl)cc21 | - | RT-K103N | - | - | <0.31 µM
Nc1ccc(C(=O)N2CCN(C(=O)C(=O)c3c[nH]c4cccc(F)c34)CC2)cc1 | - | - | HeLa + HELA CD4+/CCR5 | luciferase | <10 µM
COc1ccccc1OCCOc1ccc(-c2cnc(C)c([C@H](OC(C)(C)C)C(=O)O)c2N2CCC(C)(C)CC2)nc1 | NL4-3 | - | MT-2 | luminescence | 0.0024 µM
COc1cccc2[nH]cc(C(=O)C(=O)N3CCN(C(=O)c4ccccc4)C[C@H]3C)c12 | - | - | HeLa + HELA CD4+/CCR5 | luciferase | <10 µM
Cc1cc(OCCCS(N)(=O)=O)ccc1NC(=O)COc1ccc(Cl)cc1C(=O)c1cc(F)cc(C(F)(F)F)c1 | HXB2 | RT-K103N P225H | HeLa + HELA CD4+ | β-galactosidase | <0.01 µM
COc1ccc2sc3c(c2c1)SCC(C)/C3=N\O | - | - | OM-10.1 | p24 | 0.1 µM
O=C1Nc2ccc(Cl)cc2C(C#Cc2cncs2)(C(F)(F)F)O1 | - | RT-K103N | - | - | <0.1062 µM
COc1cccc(CN2CCNC(=O)c3sc4ccc(OC)cc4c32)c1 | - | - | OM-10.1 | p24 | <0.08 µM
COCc1nc(Nc2ccc(C#N)cc2)nc(Nc2c(C)cc(/C=C/C#N)cc2C)c1C(=O)NCCNC(C)=O | L1001+K103N | - | MT4 CMV-EGFP | - | 0.038 µM
Cc1cc(S(N)(=O)=O)ccc1NC(=O)COc1ccc(Cl)cc1C(=O)c1cccc(C#N)n1 | HXB2 | RT-Y181C | HeLa + HELA CD4+ | β-galactosidase | <0.01 µM
CC(C)C1=C2[C@H]3CC[C@@H]4[C@@]5(C)CC[C@H](OC(=O)[C@H]6C[C@@H](C(=O)O)C6(C)C)C(C)(C)[C@@H]5CC[C@@]4(C)[C@]3(C)CC[C@@]2(CC(=O)NCC(F)NC(=O)c2ccc(Cl)cc2)CC1=O | 92HT599 | - | MT-2 | p24 / ELISA | <1 µM
C[C@@H]1CN(C(=O)c2ccccc2)CCN1C(=O)C(=O)c1c[nH]c2c(Br)ccc(F)c12 | - | - | HeLa + HELA CD4+/CCR5 | luciferase | <10 µM
C=CCNC(=O)c1c(COC)nc(Nc2ccc(C#N)cc2)nc1Nc1c(C)cc(/C=C/C#N)cc1C | L1001+K103N | - | MT4 CMV-EGFP | - | 0.0102 µM
COc1cc(-c2ccc(N=Nc3ccc4c(S(=O)(=O)O)cc(S(=O)(=O)O)c(N)c4c3O)c(OC)c2)ccc1N=Nc1ccc2c(S(=O)(=O)O)cc(S(=O)(=O)O)c(N)c2c1O | 214 | - | CEM + CEM-SS | cytopathic effect / XTT | 0.6 µM
Cc1ncc(-c2cnc(OCCC(F)(F)F)c(F)c2)c(N2CCC(C)(C)CC2)c1[C@H](OC(C)(C)C)C(=O)O | NL4-3 | - | MT-2 | luminescence | 0.0054 µM
COc1cccc2[nH]cc(C(=O)C(=O)N3CCN(C(=O)c4ccccc4)C[C@H]3C)c12 | LAV | - | MT-2/CXCR4 | virus yield | 0.00198 µM
Cc1cc(C#N)cc(C)c1Oc1nc(Nc2ccc(C#N)cc2)nc(N)c1Br | p8.9 | N348I | HEK293T | luciferase | 2.75 nM
CC(C)C1=C2[C@H]3CC[C@@H]4[C@@]5(C)CC[C@H](OC(=O)[C@H]6C[C@@H](C(=O)O)C6(C)C)C(C)(C)[C@@H]5CC[C@@]4(C)[C@]3(C)CC[C@@]2([C@@H](O)CNCC(C)(C)NC(=O)C2CCNCC2)CC1=O | 92HT599 | - | MT-2 | p24 / ELISA | <1 µM
Cc1ncc(-c2ccc(OC3CCCCC3)cn2)c(N2CCC(C)(C)CC2)c1[C@H](OC(C)(C)C)C(=O)O | NL4-3 | - | MT-2 | luminescence | 0.0063 µM
Cc1cc(CNC[C@H](O)[C@@]23CC[C@]4(C)[C@H](CC[C@@H]5[C@@]6(C)CC[C@H](OC(=O)[C@H]7C[C@@H](C(=O)O)C7(C)C)C(C)(C)[C@@H]6CC[C@]54C)C2=C(C(C)C)C(=O)C3)c(C)o1 | 92HT599 | - | MT-2 | p24 / ELISA | <1 µM
O=C1NCCN(Cc2ccccc2F)c2c1sc1ccc(Cl)cc21 | - | - | OM-10.1 | p24 | <0.002 µM
Cc1cc(S(N)(=O)=O)ccc1NC(=O)COc1ccc(Cl)cc1C(=O)c1cccc(C#N)c1 | HXB2 | RT-V106I Y181C | HeLa + HELA CD4+ | β-galactosidase | 0.011–0.1 µM
O=C(C(=O)N1CCN(C(=O)C2=Nc3ccccc3C2)CC1)c1c[nH]c2cccc(F)c12 | - | - | HeLa + HELA CD4+/CCR5 | luciferase | <10 µM
COCc1nc(Nc2ccc(C#N)cc2)nc(Nc2c(C)cc(/C=C/C#N)cc2C)c1C(=O)N1CCN(CCO)CC1 | L1001+K103N | - | MT4 CMV-EGFP | - | 0.257 µM
Cc1ncc(-c2ccc(OC3CCC3C)cn2)c(N2CCC(C)(C)CC2)c1[C@H](OC(C)(C)C)C(=O)O | NL4-3 | - | MT-2 | luminescence | 0.0016 µM
CC(C)(C)OC(=O)Nc1ccc(C(=O)N2CCN(C(=O)C(=O)c3c[nH]c4cccc(F)c34)CC2)cc1 | - | - | HeLa + HELA CD4+/CCR5 | luciferase | <10 µM
CC(C)=CCOc1cc(NC(=S)c2ccsc2C)ccc1Cl | UC10/costatolide-resistant (RT K103N) | RT-K103N | CEM + CEM-SS | cytopathic effect / XTT | 1 µM
COCCNC(=O)c1c(COC)nc(Nc2ccc(C#N)cc2)nc1Nc1c(C)cc(/C=C(\C)C#N)cc1C | L1001+K103N | - | MT4 CMV-EGFP | - | 0.0158 µM
CC(=O)c1c(C)nc(-c2ccccc2)nc1NC(=O)c1ccccc1 | 7324-1 | - | HeLa | GFP / fluorescence | 1.2 µM
COC(=O)c1cccc2c(C(=O)C(=O)N3CCN(C(=O)c4ccccc4)CC3CC(C)C)c[nH]c12 | - | - | HeLa + HELA CD4+/CCR5 | luciferase | <10 µM
N#CC1=CC2Nc3ccccc3C2N(c2ccc([N+](=O)[O-])cc2)C1=O | 7295-1 | - | HeLa | GFP / fluorescence | 0.08 µM
Cc1ncc(-c2ccc(OCCCOC(C)C)cn2)c(N2CCC(C)(C)CC2)c1[C@H](OC(C)(C)C)C(=O)O | NL4-3 | - | MT-2 | luminescence | 0.0016 µM
[2H]C(CCN)(NC(=O)c1ccc(Cl)cc1)C(=O)NC[C@H](O)[C@@]12CC[C@]3(C)[C@H](CC[C@@H]4[C@@]5(C)CC[C@H](OC(=O)[C@H]6C[C@@H](C(=O)O)C6(C)C)C(C)(C)[C@@H]5CC[C@]43C)C1=C(C(C)C)C(=O)C2 | 92HT599 | - | MT-2 | p24 / ELISA | <1 µM
Cc1cc(Cl)cc(C(=O)c2cc(Cl)ccc2OCC(=O)Nc2ccc(S(N)(=O)=O)cc2C)c1 | HXB2 | RT-V106I | HeLa + HELA CD4+ | β-galactosidase | <0.01 µM
CC(C)C1=C2[C@H]3CC[C@@H]4[C@@]5(C)CC[C@H](OC(=O)[C@H]6C[C@@H](C(=O)O)C6(C)C)C(C)(C)[C@@H]5CC[C@@]4(C)[C@]3(C)CC[C@@]2(CC(=O)N(CCN(C)C)Cc2cccc(Cl)c2)CC1=O | 92HT599 | - | MT-2 | p24 / ELISA | <1 µM
COCc1nc(Nc2ccc(C#N)cc2)nc(Nc2c(C)cc(/C=C(\C)C#N)cc2C)c1C(=O)NCc1ccncc1 | IIIB | - | MT4 CMV-EGFP | - | 0.00389 µM
COc1ccc2c(c1)C1=C(CC2)C(=O)N[C@H]2CCCC[C@@H]2N1 | - | - | OM-10.1 | p24 | 5.3 µM
COCc1nc(Nc2ccc(C#N)cc2)nc(Nc2c(C)cc(/C=C/C#N)cc2C)c1C(=O)NCC1CCCO1 | K103N + Y181C | - | MT4 CMV-EGFP | - | 0.0295 µM
CC(C)=CCOc1cc(NC(=S)c2ccoc2C)ccc1Cl | BaL | - | MAC | cytopathic effect / XTT | 0.03 µM
Cc1ncc(-c2cnc(OCCN3CCSCC3)c(F)c2)c(N2CCC(C)(C)CC2)c1[C@H](OC(C)(C)C)C(=O)O | NL4-3 | - | MT-2 | luminescence | 0.0016 µM

A second listing of 5 rows from above:

O=C1Nc2ccc(F)cc2C(C#Cc2cccs2)(C(F)(F)F)O1 ; mutations: RT-K103N ; result: <0.369 µM
COCc1nc(Nc2ccc(C#N)cc2)nc(Nc2c(C)cc(/C=C/C#N)cc2C)c1C(=O)N1CCN(CCO)CC1 ; strain: L1001+K103N ; cell line: MT4 CMV-EGFP ; result: 0.257 µM
[2H]C(CCN)(NC(=O)c1ccc(Cl)cc1)C(=O)NC[C@H](O)[C@@]12CC[C@]3(C)[C@H](CC[C@@H]4[C@@]5(C)CC[C@H](OC(=O)[C@H]6C[C@@H](C(=O)O)C6(C)C)C(C)(C)[C@@H]5CC[C@]43C)C1=C(C(C)C)C(=O)C2 ; strain: 92HT599 ; cell line: MT-2 ; method: p24 / ELISA ; result: <1 µM
COCc1nc(Nc2ccc(C#N)cc2)nc(Nc2c(C)cc(/C=C(\C)C#N)cc2C)c1C(=O)NCc1ccncc1 ; strain: IIIB ; cell line: MT4 CMV-EGFP ; result: 0.00389 µM
Nc1ccc(C(=O)N2CCN(C(=O)C(=O)c3c[nH]c4cccc(F)c34)CC2)cc1 ; cell line: HeLa + HELA CD4+/CCR5 ; method: luciferase ; result: <10 µM